Laboratory results as given in ChEMBL document CHEMBL1128214, “Structure-based design of sulfonamide-substituted non-peptidic HIV protease inhibitors” (J Med Chem, 1995).

Target: Human immunodeficiency virus type 1 protease (Human immunodeficiency virus 1, UniProt Q72874)
Experiment: Inhibitory activity against HIV-1 protease

`O=c1c2c(oc(O)c1C(c1cccc(NS(=O)(=O)c3ccccc3)c1)C1CC1)CCCCCC2` (stereo unspecified) showed a Ki of 3 nM.
